Values of other authors, collected in article PMC11050952 (Marine Drugs, 2024).

Assays:
Neuro-2a cells = details: TEFs previously obtained by the CBA, relative to TTX; cited from earlier work
mouse = details: since trials with MBA resulted in very low toxicities; cited from earlier work

Substance	Toxicity equivalency factor (TEF) (Neuro-2a cells)	Toxicity equivalency factor (TEF), assumed (mouse)
5,11-dideoxyTTX	0.75	–
5-deoxyTTX	–	0
11-deoxyTTX	0.139	–
11-norTTX-6(S)-ol	0.404	–
